Results of unrelated studies side by side (data: NIAID ChemDB).

All rows: growth or infection tests; organism: HIV-1; cell line: MT-4; measure: EC50

ECn: concentration that inhibits the pathogen or its effect by n%. Blank or dashed fields: not listed here. Conditions beyond the fields shown may differ between rows.

compound	strain	changes	read by	value
CC(C)C[C@H](NC(=O)[C@@H](NC(=O)[C@H](Cc1c[nH]c2ccccc12)NC(=O)CCC(=O)Nc1ccn([C@H]2CC[C@@H](CO[Si](c3ccccc3)(c3ccccc3)C(C)(C)C)O2)c(=O)n1)C(C)C)[C@@H](O)CC(=O)NC(Cc1ccccc1)c1ccccc1			syncytia	10 µM
CCN1C[C@H](C)N2C(=C(O)C3C(=O)N4Cc5ccc(F)cc5C(=O)NCCCCCCN(C)C(=N4)C32)C1=O	LAII(IIIB)			152 µM
C[C@@H]1CO[C@@]2(CC[C@H](C)N3C[C@H]2n2cc(C(=O)NCc4c(F)cc(F)cc4F)c(=O)c(O)c2C3=O)O1	IIIB		luminescence	0.0005 µM
CCN1C[C@H](C)N2C(=C(O)C3C(=O)N4Cc5cc(F)c(F)cc5OCCCCCS(=O)(=O)N(C)C(=N4)C32)C1=O	LAII(IIIB)			0.6 µM
O=C[C@H](OC(=O)c1cc(O)c(O)c(O)c1)[C@@H](OC(=O)c1cc(O)c(O)c(O)c1)[C@@H]1OC(=O)c2cc(O)c(O)c(O)c2-c2c(cc(O)c(O)c2O)C(=O)OC[C@H]1O	IIIB		cytopathic effect / MTT	>25 µg/mL
CCCc1c(Cc2cccc3ccccc23)n(COCCO)c(=O)[nH]c1=O	LAV			4.78 µM
O=c1cc(Cc2ccccc2)nc(OCCCCO)[nH]1	IIIB		cytopathic effect / MTT	>200 µM
CN1CCc2nc(C(=O)NCc3ccc(F)cc3)c(O)c(=O)n2C1=O			p24	<50 µM
CC.CC(C)C[C@H](NC(=O)[C@@H](NC(=O)[C@H](Cc1c[nH]c2ccccc12)NC(=O)CCCCCCC(=O)Nc1ccn([C@H]2CC[C@@H](CO[Si](c3ccccc3)(c3ccccc3)C(C)(C)C)O2)c(=O)n1)C(C)C)[C@@H](O)CC(=O)NC(Cc1ccccc1)c1ccccc1			syncytia	0.5 µM
O=C(O)CCC(NC(=O)c1ccc(OCc2nc3ccccc3n3cccc23)cc1)C(=O)O			cytopathic effect / MTT	>95 µM
O=C(OC1OC2COC(=O)c3cc(O)c(O)c(O)c3-c3c(cc(O)c(O)c3O)C(=O)OC2C(OC(=O)c2cc(O)c(O)c(O)c2)C1OC(=O)c1cc(O)c(O)c(O)c1)c1cc(O)c(O)c(Oc2c(C(=O)OC3OC4COC(=O)c5cc(O)c(O)c(O)c5-c5c(cc(O)c(O)c5O)C(=O)OC4C(OC(=O)c4cc(O)c(O)c(O)c4)C3OC(=O)c3cc(O)c(O)c(O)c3)cc(O)c(O)c2O)c1	IIIB		cytopathic effect / MTT	>50 µg/mL
O=c1ccn([C@H]2C=C[C@@H](CO)O2)c(=O)n1CCCCCCN1CCN(CCNC(=S)Nc2ccc(Br)cn2)CC1	IIIB		RT activity	>100 µM
C=CS(=O)(=O)N1CCC(NS(=O)(=O)c2c(C(N)=O)[nH]c3ccc(Br)cc23)C1	IIIB		MTT	9.74 µM
CC(C)C[C@H](NC(=O)[C@@H](NC(=O)[C@@H](N)Cc1c[nH]c2ccccc12)C(C)C)[C@@H](O)CC(=O)NC(Cc1ccccc1)c1ccccc1			syncytia	5 µM
O=C(O)c1cc(O)c(O)c(O)c1	IIIB		cytopathic effect / MTT	>6.3 µg/mL
CCC(C)Oc1nc(Cc2ccccc2)cc(=O)[nH]1	IIIB		cytopathic effect / MTT	5.5 µM
Cc1cn([C@H]2C=C[C@@H](CO)O2)c(=O)n(CCCCN2CCN(CCNC(=S)Nc3ccc(Br)cn3)CC2)c1=O	IIIB		RT activity	>100 µM
Cc1cc(C#N)cc(C)c1Oc1nc(NC2CCC(NCc3ccccc3)CC2)nc2ccsc12	IIIB	NNRTI-resistant (RT L100I)	MTT	0.983 µM
O=c1[nH]c(=O)c2ncn([C@@H]3O[C@H](CO)[C@H]3CO)c2[nH]1	IIIB		RT activity / antigen	>100 µg/mL
O=c1cc(Cc2ccccc2)nc(OC2CCCCC2)[nH]1	IIIB		cytopathic effect / MTT	9 µM
CCN(CC)CCN1CCn2c(nc(C(=O)NCc3ccc(F)cc3)c(O)c2=O)C1(C)C			p24	<1 µM
Cc1cc(C#N)cc(C)c1Oc1nc(NC2CCC(NCc3ccc(F)cc3)CC2)nc2ccsc12	IIIB	NNRTI-resistant (RT K103N)	MTT	0.883 µM
COc1cc(OCc2nc3cc(C(F)(F)F)ccc3n3cccc23)cc(OC)c1OC			cytopathic effect / MTT	>100 µM
O=C(O[C@@H]1O[C@@H]2COC(=O)c3cc(O)c(O)c(O)c3-c3c(cc(O)c(O)c3O)C(=O)O[C@H]2[C@H](OC(=O)c2cc(O)c(O)c(O)c2)[C@H]1OC(=O)c1cc(O)c(O)c(O)c1)c1cc(O)c(O)c(Oc2c(C(=O)O[C@H]3[C@H](OC(=O)c4cc(O)c(O)c(O)c4)O[C@@H]4COC(=O)c5cc(O)c(O)c(O)c5-c5c(cc(O)c(O)c5O)C(=O)O[C@H]4[C@@H]3OC(=O)c3cc(O)c(O)c(O)c3)cc(O)c(O)c2O)c1	IIIB		cytopathic effect / MTT	>100 µg/mL
O=C(O)CCC(NC(=O)c1ccc(Nc2nc3ccccc3n3cccc23)cc1)C(=O)O			cytopathic effect / MTT	>100 µM
CCN1CCN2C(=C(O)C3C(=O)N4Cc5ccc(F)cc5OCCCCCNC(=O)C(=N4)C32)C1=O	LAII(IIIB)			1.49 µM
Cc1cc(/C=C/C#N)cc(C)c1Oc1nc(NC2CCN(Cc3ccccc3Cl)CC2)nc2ccsc12	IIIB	NNRTI-resistant (RT L100I)	MTT	0.0304 µM
CCN1C[C@H](C)N2C(=C(O)C3C(=O)N4Cc5ccc(F)cc5OCCCCCCN(C)C(=N4)C32)C1=O	LAII(IIIB)			82.56 µM
Nc1nc(N)c2ncn([C@@H]3O[C@H](CO)[C@H]3CO)c2n1	IIIB		RT activity / antigen	4.7 µg/mL
COc1ccc(OCc2nc3cc(C(F)(F)F)ccc3n3cccc23)cc1			cytopathic effect / MTT	>52 µM
CCOCn1c(Cc2ccc3ccccc3c2)c(CC)c(=O)[nH]c1=O	LAV			3.194 µM
O=CC(OC(=O)c1cc(O)c(O)c(O)c1Oc1cc(C(=O)O)cc(O)c1O)C(OC(=O)c1cc(O)c(O)c(O)c1)C1OC(=O)c2cc(O)c(O)c(O)c2-c2c(cc(O)c(O)c2O)C(=O)OCC1O	IIIB		cytopathic effect / MTT	>50 µg/mL
C[C@H](c1ccccc1)N1O[C@@]2(CC[C@H](C)N3C[C@H]2n2cc(C(=O)NCc4c(F)cc(F)cc4F)c(=O)c(O)c2C3=O)CC1=O	IIIB		luminescence	0.0009 µM
Cc1cn([C@H]2C=C[C@@H](CO)O2)c(=O)n(CCOCCN2CCN(CCNC(=S)Nc3ccc(Br)cn3)CC2)c1=O	IIIB		RT activity	52 µM
O=CC(OC(=O)c1cc(O)c(O)c(O)c1Oc1cc2c(c(O)c1O)-c1c(cc(O)c(O)c1O)C(=O)COC1OC(OC(=O)c3cc(O)c(O)c(O)c3Oc3cc4c(=O)oc5c(O)c(O)cc6c(=O)oc(c3O)c4c56)C(OC(=O)c3cc(O)c(O)c(O)c3)C(OC(=O)c3cc(O)c(O)c(O)c3)C1OC2=O)C(OC(=O)c1cc(O)c(O)c(O)c1)C(O)C(O)CO	IIIB		cytopathic effect / MTT	11.8 µg/mL
C=C(C)C(=O)NC(=O)NC1OC(CO[Si](C)(C)C(C)(C)C)C2(OS(=O)(=O)C=C2N)C1O[Si](C)(C)C(C)(C)C				1.35 µM
Cc1cc(C#N)cc(C)c1Oc1nc(NC2CCN(Cc3ccc(S(C)(=O)=O)cc3)CC2)nc2sccc12	IIIB	NNRTI-resistant (RT F227L V106A)	MTT	0.00868 µM
CCCc1c(Cc2cccc3ccccc23)n(COCC)c(=O)[nH]c1=O	LAV			0.795 µM
COc1ccc(Nc2nc3cc(C(F)(F)F)ccc3n3cccc23)cc1OC			cytopathic effect / MTT	>27 µM
Cc1cc(/C=C/C#N)cc(C)c1Oc1nc(NC2CCN(Cc3ccc(Cl)cc3)CC2)nc2ccsc12	IIIB	NNRTI-resistant (RT L100I)	MTT	0.0428 µM
COc1cc(OC)cc(OCc2nc3ccccc3n3cccc23)c1			cytopathic effect / MTT	>100 µM
Oc1cc(O)c2c(c1)O[C@H](c1cc(O)c(O)c(O)c1)[C@H](O)C2	IIIB		cytopathic effect / MTT	>25 µg/mL
C[C@H]1CC[C@]2(CC(C#N)=NO2)[C@H]2CN1C(=O)c1c(O)c(=O)c(C(=O)NCc3ccc(F)cc3F)cn12	IIIB		luminescence	0.1 µM
CCOC(=O)c1ccc(Nc2nc3ccccc3n3cccc23)cc1			cytopathic effect / MTT	>100 µM
Cc1coc(CN2CCn3c(nc(C(=O)NCc4ccc(F)cc4)c(O)c3=O)C2(C)C)n1			p24	<1 µM
CC(=O)N[C@@H]1OC(CO[Si](C)(C)C(C)(C)C)C2(OS(=O)(=O)C=C2N)C1O[Si](C)(C)C(C)(C)C				>7.7 µM
Cc1c(Cc2ccccc2)nc(OC2CCCC2)[nH]c1=O	IIIB		cytopathic effect / MTT	10 µM
Cc1cn([C@H]2C=C[C@@H](CO)O2)c(=O)n(CCCCCCN2CCN(CCNC(=S)Nc3ccc(Br)cn3)CC2)c1=O	IIIB		RT activity	>100 µM
C[C@H]1CC[C@]2(CC(=O)N([C@@H](C)c3ccccc3)O2)[C@H]2CN1C(=O)c1c(O)c(=O)c(C(=O)NCc3c(F)cc(F)cc3F)cn12	IIIB		luminescence	0.0008 µM
CC1(C)c2nc(C(=O)NCc3ccc(F)cc3)c(O)c(=O)n2CCN1Cc1ccccc1			p24	<1 µM
Cc1cn([C@H]2C[C@H](N=[N+]=[N-])C([C@H](O)CO)O2)c(=O)[nH]c1=O	IIIB		cytopathic effect / trypan blue	>200 µg/mL
CCOC(=O)CCC(NC(=O)c1ccc(Nc2nc3cc(C(F)(F)F)ccc3n3cccc23)cc1)C(=O)OCC			cytopathic effect / MTT	>39 µM
C[C@H]1CC[C@]2(CC(=O)N(CC(C)(C)C)O2)[C@H]2CN1C(=O)c1c(O)c(=O)c(C(=O)NCc3c(F)cc(F)cc3F)cn12	IIIB		luminescence	0.0058 µM
Cc1cc(C#N)cc(C)c1Oc1nc(NC2CCN(Cc3ccc(S(N)(=O)=O)cc3)CC2F)nc2ccsc12	IIIB	NNRTI-resistant (RT K103N)	MTT	0.00789 µM
CC(C)N1C[C@H](C)N2C(=C(O)C3C(=O)N(Cc4ccc(F)cc4)N=C(N(C)S(C)(=O)=O)C32)C1=O	LAII(IIIB)			0.99 µM
CCOCn1c(Cc2cccc3ccccc23)c(CC)c(=O)[nH]c1=O	LAV			0.041 µM
CC1(C)c2nc(C(=O)NCc3ccc(F)cc3)c(O)c(=O)n2CCN1CC(N)=O			p24	<1 µM
O=C(OC1OC2COC(=O)c3cc(O)c(O)c(O)c3-c3c(cc(O)c(O)c3O)C(=O)OC2C(OC(=O)c2cc(O)c(O)c(O)c2)C1O)c1cc(O)c(O)c(O)c1	IIIB		cytopathic effect / MTT	>25 µg/mL

7 of the rows above, restated:

{"compound": "CCCc1c(Cc2cccc3ccccc23)n(COCC)c(=O)[nH]c1=O", "strain": "LAV", "value": "0.795 µM"}
{"compound": "CC(C)C[C@H](NC(=O)[C@@H](NC(=O)[C@H](Cc1c[nH]c2ccccc12)NC(=O)CCC(=O)Nc1ccn([C@H]2CC[C@@H](CO[Si](c3ccccc3)(c3ccccc3)C(C)(C)C)O2)c(=O)n1)C(C)C)[C@@H](O)CC(=O)NC(Cc1ccccc1)c1ccccc1", "read by": "syncytia", "value": "10 µM"}
{"compound": "CC(=O)N[C@@H]1OC(CO[Si](C)(C)C(C)(C)C)C2(OS(=O)(=O)C=C2N)C1O[Si](C)(C)C(C)(C)C", "value": ">7.7 µM"}
{"compound": "C=CS(=O)(=O)N1CCC(NS(=O)(=O)c2c(C(N)=O)[nH]c3ccc(Br)cc23)C1", "strain": "IIIB", "read by": "MTT", "value": "9.74 µM"}
{"compound": "Cc1cc(/C=C/C#N)cc(C)c1Oc1nc(NC2CCN(Cc3ccc(Cl)cc3)CC2)nc2ccsc12", "strain": "IIIB", "changes": "NNRTI-resistant (RT L100I)", "read by": "MTT", "value": "0.0428 µM"}
{"compound": "CCN1C[C@H](C)N2C(=C(O)C3C(=O)N4Cc5cc(F)c(F)cc5OCCCCCS(=O)(=O)N(C)C(=N4)C32)C1=O", "strain": "LAII(IIIB)", "value": "0.6 µM"}
{"compound": "C=C(C)C(=O)NC(=O)NC1OC(CO[Si](C)(C)C(C)(C)C)C2(OS(=O)(=O)C=C2N)C1O[Si](C)(C)C(C)(C)C", "value": "1.35 µM"}